Earlier results in patent US5955100A, “Prodrugs their preparation and use as pharmaceuticals” (priority 1992, dated 1999).

System: tumors with high β-glucuronidase levels
Settings: tumor patients; cited from earlier work

Compound: ClCCN(CCCl)c1ccccc1
- therapeutic results in clinical trial: rather disappointing
